A mixed list of measured activities; the numbers were collected in NIAID ChemDB.

All rows: growth or infection tests; agent: Mycobacterium tuberculosis

MIC bound comes from a single tested concentration. Blank or dashed fields: not listed here. Percent inhibition refers to the dose given; in toxicity tests it is the harm to the cells. MIC50, MIC90 and the like: level of inhibition, or share of isolates inhibited. ECn is the concentration giving n% inhibition of infection, replication or growth. Rows are shuffled and stem from different studies.

SMILES | endpoint | strain or isolate | cells | read by | tested at | mutations | result
O=[N+]([O-])c1cn2c(n1)O[C@@H](COc1ccc(N3CCC(COCc4ccc(OC(F)(F)F)cc4)CC3)cc1)C2 | MIC | H37Rv |  |  |  |  | 0.0015 µg/mL
N#Cc1c(NC(=O)c2c(F)c(F)c(F)c(F)c2F)sc2c1CCOC2 | EC90 | ATCC35838 |  | turbidity |  |  | 5.4 µM
CN(C)CN1CSC(=S)N(CN(C)C)C1 | MIC bound | H37Rv |  | BACTEC |  |  | >12.5 µg/mL
Cc1ccc2c(c1)[n+](=O)c(C(=O)c1ccccc1)c(C)n2[O-] | inhibition | H37Rv | VERO | BACTEC | 6.25 µg/mL |  | 44%
OC[C@H]1O[C@H](OC[C@H]2O[C@H](O[C@]3(CO)O[C@H](CO)[C@@H](O)[C@@H]3O)[C@H](O)[C@@H](O)[C@@H]2O)[C@H](O)[C@@H](O)[C@H]1O | MIC bound | H37Rv |  | BACTEC |  |  | >12.5 µg/mL
CCCCCCCOc1ccccc1NC(=O)OCC[NH+]1CCCC1 | MIC | My 331/88 |  |  |  |  | 32 µM
CCN1CCc2c(sc(NC(=O)c3c(F)c(F)c(F)c(F)c3F)c2C(=O)NC)C1 | MIC | ATCC 35822 |  | turbidity |  |  | 3.2 µM
CC1CN(c2cc3c(cc2F)c(=O)c(C(=O)O)cn3-c2ccc(F)cc2F)CCN1 | MIC90 | DRUG-SUS |  |  |  |  | 2 µg/mL
CN(C)c1ccc(/C=N/NC(=O)c2ccncc2)cc1 | MIC | H37Rv | VERO |  |  |  | 0.2 µg/mL
CC(=O)c1c(COc2ccccc2)n([O-])c2ccccc2[n+]1=O | EC50 | H37Rv | VERO | BACTEC |  |  | <6.25 µg/mL
CCN1CCc2c(sc(NC(=O)c3c(F)c(F)c(F)c(F)c3F)c2C#N)C1 | EC50 |  |  | low oxygen |  |  | 6.1 µM
Cc1cc(NCC(=O)NN)ccc1Cl | MIC bound | H37Rv |  | BACTEC |  |  | >12.5 µg/mL
Cn1c(=O)c(N=Nc2ccccc2[N+](=O)[O-])c(O)c2ccccc21 | inhibition | H37Rv |  | resazurin | 6.25 µg/mL |  | 94%
COC(=O)c1nn2c(=O)n(C(C)=O)c3ccccc3c2c1C(=O)OC | inhibition | H37Rv |  | BACTEC | 12.5 µg/mL |  | 8%
CCCc1ccc(N(C)C2CCN(c3ccc(OC[C@@]4(C)Cn5cc([N+](=O)[O-])nc5O4)cc3)CC2)cc1 | MIC | H37Rv |  |  |  |  | 0.024 µg/mL
CCOC(=O)Nc1cc2[nH]c(-c3ccc(O)cc3)nc2c(N)n1 | EC50 | H37Rv |  |  |  |  | >12.5 µg/mL
CCCCNC(=O)c1cc(-c2ccccc2)sc1N | MIC | H37Rv |  | resazurin |  |  | >100 µg/mL
CCOC(=O)Nc1cc(NNc2cc(NC(=O)OCC)nc(N)c2[N+](=O)[O-])c([N+](=O)[O-])c(N)n1 | inhibition | H37Rv |  |  | 12.5 µg/mL |  | 0%
CNC(=O)c1ccc[n+](C2OC(COC(C)=O)C(OC(C)=O)C2OC(C)=O)c1.[Br-] | inhibition | H37Rv |  | BACTEC | 12.5 µg/mL |  | 0%
COc1cccc(NC(=O)OCC[NH+]2CCCC2)c1 | MIC | My 331/88 |  |  |  |  | >1000 µM
C[C@]1(COc2ccc(N3CCN(C/C=C/c4ccccc4C(F)(F)F)CC3)cc2)Cn2cc([N+](=O)[O-])nc2O1 | MIC | H37Rv |  |  |  |  | 0.012 µg/mL
Nc1sc(-c2ccccc2)cc1C(=O)NC12CC3CC(CC(C3)C1)C2 | MIC | H37Rv |  | resazurin |  |  | >100 µg/mL
COc1ccc(N=Nc2c(O)c3c(Cl)ccc(Cl)c3[nH]c2=O)cc1 | MIC | H37Rv |  | resazurin |  |  | >6.25 µg/mL
CC(=O)c1c(COc2ccc(Cl)cc2)n([O-])c2ccccc2[n+]1=O | inhibition | H37Rv | VERO | BACTEC | 6.25 µg/mL |  | 99%
CCCOc1ccccc1NC(=O)OCCN1CCCCC1 | MIC | My 331/88 |  |  |  |  | 250 µM
CO[C@H]1/C=C/O[C@@]2(C)Oc3c(C)c(O)c4c(O)c(c(/C=N/N5CCN(C6CCCC6)CC5)c(O)c4c3C2=O)NC(=O)/C(C)=C\C=C\[C@H](C)[C@H](O)[C@@H](C)[C@@H](O)[C@@H](C)[C@H](OC(C)=O)[C@@H]1C | MIC | 13684 |  |  |  |  | 0.04 µg/mL
COC(=O)[C@H]1[C@H]2C[C@@H]3c4[nH]c5ccccc5c4CCN3C[C@H]2C[C@@H](O)[C@@H]1OC(=O)c1cc(OC)c(OC)c(OC)c1 | inhibition | H37Rv |  | BACTEC | 12.8 µg/mL |  | -3%
COc1ccc(OCc2c(C(C)=O)[n+](=O)c3ccccc3n2[O-])cc1 | EC50 | H37Rv | VERO | BACTEC |  |  | <6.25 µg/mL
CC(=O)Nc1ccc(/C=N/NC(N)=S)cc1 | MIC | Isolate A drug-susceptible |  |  |  |  | 15 µg/mL
O=c1[nH]c2cc(Cl)ccc2c(O)c1N=Nc1ccccc1 | MIC | H37Rv |  | resazurin |  |  | <6.25 µg/mL
C[C@]1(COc2ccc(N3CCN(Cc4cc5cc(Cl)ccc5s4)CC3)cc2)Cn2cc([N+](=O)[O-])nc2O1 | MIC | H37Rv |  |  |  |  | 0.006 µg/mL
O=c1[nH]c2c(Cl)c(Cl)ccc2c(O)c1N=Nc1ccc([N+](=O)[O-])cc1 | MIC | H37Rv |  | resazurin |  |  | <6.25 µg/mL
CCn1c(=O)nc2n(-c3ccc(SC)cc3)c3ccccc3nc-2c1=O | inhibition | H37Rv |  | BACTEC | 12.5 µg/mL |  | 43%
CCOC(=O)Nc1cc2c(c(N)n1)N=C(c1ccc(F)cc1)CN2 | EC50 | H37Rv |  |  |  |  | <12.5 µg/mL
O=c1[nH]c2c([N+](=O)[O-])cccc2c(O)c1N=Nc1ccc(Cl)c(Cl)c1 | inhibition | H37Rv |  | resazurin | 6.25 µg/mL |  | 79%
CCC1(C)C(=O)N(Br)C(=O)N1Br | MIC bound | H37Rv |  | BACTEC |  |  | >12.5 µg/mL
Cc1c(C(=O)c2ccccc2)[n+](=O)c2ccccc2n1[O-] | inhibition | H37Rv | VERO | BACTEC | 6.25 µg/mL |  | 98%
CCOC(=O)Nc1cc(NC(O)/C(=C/O)c2cccc([N+](=O)[O-])c2)c([N+](=O)[O-])c(N)n1 | EC50 | H37Rv |  |  |  |  | >12.5 µg/mL
Cc1ccn2nc(C)c(C(=O)NCc3ccc(-c4ccc(OC(F)(F)F)cc4)cn3)c2c1 | MIC | FQ-R1 |  | resazurin |  | gyrB mutant fluoroquinolone resistant | 0.009 µg/mL
CO[C@H]1/C=C/O[C@@]2(C)Oc3c(C)c(O)c4c(O)c(c5c(c4c3C2=O)NC2(CCN(CC(C)C)CC2)N=5)=NC(=O)/C(C)=C\C=C\[C@H](C)[C@H](O)[C@@H](C)[C@@H](O)[C@@H](C)[C@H](OC(C)=O)[C@@H]1C | MIC | Strain 102-117 (S531L) |  |  |  |  | 12 µg/mL
CCCOc1ccc(NC(=O)OCCN(C)C)cc1 | MIC | My 331/88 |  |  |  |  | 500 µM
CCOC(=O)c1c(NC(=O)c2c(F)c(F)c(F)c(F)c2F)sc2c1CCNC2=O | EC90 |  |  | low oxygen |  |  | 3.8 µM
COc1cc2c(c3c1/c(=N\N(C)C)c1ccccc1n3C)C=CC(C)(C)O2 | inhibition | H37Rv |  | BACTEC | 12.5 µg/mL |  | 85%
C[C@]1(COc2ccc(N3CCC(COCc4ccc(Cl)c(Cl)c4)CC3)cc2)Cn2cc([N+](=O)[O-])nc2O1 | MIC | H37Rv |  |  |  |  | 0.024 µg/mL
CO[C@H]1/C=C/O[C@@]2(C)Oc3c(C)c(O)c4c(=O)c(c5oc6cc(N7CCN(CC(C)C)CC7)cc(=O)c6nc5c4c3=C2O)NC(=O)/C(C)=C\C=C\[C@H](C)[C@H](O)[C@@H](C)[C@@H](O)[C@@H](C)[C@H](OC(C)=O)[C@@H]1C | MIC | H37Rv-pAV (Val516 mutation) |  |  |  |  | ≤0.015 µg/mL
COc1ccc(C(c2ccc(C(C)C)cc(=O)c2O)c2ccc3cccnc3c2O)cc1 | inhibition | H37Rv |  | resazurin | 6.25 µg/mL |  | 25%
C[C@]1(COc2ccc(N3CCN(C/C=C/c4cc(Cl)c(Cl)cc4Cl)CC3)cc2)Cn2cc([N+](=O)[O-])nc2O1 | MIC | H37Rv |  |  |  |  | 0.024 µg/mL
Nc1sc2c(c1C(=O)O)CCCC2 | MIC | H37Rv |  | resazurin |  |  | 100 µg/mL
C/C=C(/C)C(=O)OC1CC(C)(C)CC2C3=CCC4C5(C)CC[C@H](OC(C)=O)C(C)(C)C5CC[C@@]4(C)[C@]3(C)CC[C@@]12C(=O)O | MIC | H37Rv (rifampicin-resistant) |  |  |  |  | 50 µg/mL
CC(CCCN)Nc1cc2c(c3cccnc13)OCCO2.O=P(O)(O)O | inhibition | H37Rv |  | BACTEC | 12.5 µg/mL |  | 38%
CC[C@H]1OC(=O)[C@H](C)[C@@H](O[C@H]2C[C@@](C)(OC)[C@@H](O)[C@H](C)O2)[C@H](C)[C@@H](O[C@@H]2O[C@H](C)C[C@H](N(C)C)[C@H]2O)[C@](C)(OC)C[C@@H](C)C(=O)[C@H](C)[C@@H](O)[C@]1(C)O | MIC90 | DRUG-SUS |  |  |  |  | >8 µg/mL
Cc1c([N+](=O)[O-])c(=O)oc2ccc3c(=O)ccoc3c12 | MIC bound | H37Rv |  | BACTEC |  |  | >12.5 µg/mL
NC[C@@H]1O[C@H](O[C@H]2[C@@H](O)[C@H](O[C@@H]3[C@@H](O)[C@H](N)C[C@H](N)[C@H]3O[C@H]3O[C@H](CO)[C@@H](O)C[C@H]3N)O[C@@H]2CO)[C@H](N)[C@@H](O)[C@@H]1O[C@H]1O[C@H](CO)[C@@H](O)[C@H](O)[C@@H]1O | EC50 | H37Rv (kanamycin-resistant) |  |  |  |  | ≥50 µg/mL
COc1c(N2CC[C@@H](C(C)(C)N)C2)c(F)cc2c(=O)c3c(=O)[nH]sc3n(C3CC3)c12 | MIC | Pan-susceptible clinical isolate 3 |  |  |  |  | 0.06 µg/mL
CCCCCCCCS(=O)(=O)CC(N)=O | MIC | 1H1337 |  |  |  |  | ≤6.25 µg/mL
CCOC(=O)N(c1ccccc1)c1cc(Cl)c([N+](=O)[O-])c(N)n1 | EC50 | H37Rv |  |  |  |  | >12.5 µg/mL
C[C@@H]1CN(c2c(F)c(N)c3c(=O)c(C(=O)O)cn(C4CC4)c3c2F)C[C@H](C)N1 | MBC90 | Drug-resistant |  |  |  |  | 0.25 µg/mL
CC(=O)c1ccc(N=Nc2c(O)c3ccc(Cl)c(Cl)c3[nH]c2=O)cc1 | MIC | H37Rv |  | resazurin |  |  | <6.25 µg/mL
Cc1ccc2oc(=O)c(-c3ccccc3)nc2c1 | inhibition | H37Rv |  | BACTEC | 12.5 µg/mL |  | -19%
CO[C@H]1/C=C/O[C@@]2(C)Oc3c(C)c(O)c4c(=O)c(c5oc6cc(N7CCN(CC(C)C)CC7)cc(=O)c6nc5c4c3=C2O)NC(=O)/C(C)=C\C=C\[C@H](C)[C@H](O)[C@@H](C)[C@@H](O)[C@@H](C)[C@H](OC(C)=O)[C@@H]1C | MIC | 2242 (rifampicin-susceptible) |  |  |  |  | 0.0078 µg/mL
COc1cc2c(c(OC)c1OC)-c1ccc(SC)c(=O)cc1C(N=C(N[C@@H]1OC[C@H](OC(C)=O)[C@H](OC(C)=O)[C@H]1OC(C)=O)SN(NC(=O)OCc1ccccc1)C(=O)OCc1ccccc1)CC2 | MIC bound | H37Rv |  | resazurin |  |  | >6.25 µg/mL
CN(c1ccccc1)C1CCN(c2ccc(OC[C@@]3(C)Cn4cc([N+](=O)[O-])nc4O3)cc2)CC1 | MIC | H37Rv |  |  |  |  | 0.024 µg/mL
CN(C)S(=O)(=O)c1ccc2c(c1)N(CCCN1CCN(S(C)(=O)=O)CC1)c1ccccc1S2 | inhibition | H37Rv |  | BACTEC | 12.5 µg/mL |  | 9%
CCCCCCCCCOc1ccccc1NC(=O)OCCN(C)C | MIC | My 331/88 |  |  |  |  | 4 µM
CC(C)=CCC/C(C)=C/COc1ccc(/C=C2\C(=O)N(O)[C@@H](C)C(=O)N2O)cc1 | inhibition | H37Rv |  | BACTEC | 12.5 µg/mL |  | 94%
CCNC(=O)c1c(NC(=O)c2c(F)c(F)c(F)c(F)c2F)sc2c1CCN(CC)C2 | EC50 |  |  | low oxygen |  |  | 2 µM
Cc1cc(C)nc(NN=O)c1 | MIC | H37Rv |  | BACTEC |  |  | ≥12.5 µg/mL
CC[C@H]1OC(=O)[C@H](C)[C@@H](O[C@H]2C[C@@](C)(OC)[C@@H](O)[C@H](C)O2)[C@H](C)[C@@H](O[C@@H]2O[C@H](C)C[C@H](N(C)C)[C@H]2O)[C@](C)(O)C[C@@H](C)C(=O)[C@H](C)[C@@H](O)[C@]1(C)O | MIC | ATCC 35828 |  |  |  |  | >8 µg/mL
CCCn1cc2c3c(cccc31)[C@H]1C=C(C)CN(C)[C@@H]1C2.O=C(O)[C@H](O)[C@@H](O)C(=O)O | MIC bound | H37Rv |  | BACTEC |  |  | >12.5 µg/mL
C[C@H]1COc2c(N3CCN(C)CC3)c(F)cc3c(=O)c(C(=O)O)cn1c23 | MIC | RIF-R1 |  | resazurin |  | rpoB mutant rifampicin-resistant | 0.37 µg/mL
COc1ccc(/C=C/c2c(C(=O)O)oc3ccccc23)cc1 | inhibition | H37Rv |  | BACTEC | 12.5 µg/mL |  | -3%
CC1COc2c(N3CCN(C)CC3)c(F)cc3c(=O)c(C(=O)O)cn1c23 | MIC | ATCC 35827 |  |  |  |  | 0.5 µg/mL

Repeating the final 4 entries:

SMILES | endpoint | strain or isolate | cells | read by | tested at | mutations | result
CCCn1cc2c3c(cccc31)[C@H]1C=C(C)CN(C)[C@@H]1C2.O=C(O)[C@H](O)[C@@H](O)C(=O)O | MIC bound | H37Rv |  | BACTEC |  |  | >12.5 µg/mL
C[C@H]1COc2c(N3CCN(C)CC3)c(F)cc3c(=O)c(C(=O)O)cn1c23 | MIC | RIF-R1 |  | resazurin |  | rpoB mutant rifampicin-resistant | 0.37 µg/mL
COc1ccc(/C=C/c2c(C(=O)O)oc3ccccc23)cc1 | inhibition | H37Rv |  | BACTEC | 12.5 µg/mL |  | -3%
CC1COc2c(N3CCN(C)CC3)c(F)cc3c(=O)c(C(=O)O)cn1c23 | MIC | ATCC 35827 |  |  |  |  | 0.5 µg/mL